This passage reports IC50 results from PubChem BioAssay AID1159564 (GlaxoSmithKline (GSK), 2015).

The test system of the assay is L. donovani-infected THP-1 macrophages, intracellular amastigote imaging. Kind of assay: intracellular L. donovani amastigote inhibition, imaging, THP-1 host macrophages, host toxicity (AID 1159564).

For orientation: IC50 means the midpoint of a concentration-inhibition curve. Consider `CC(C)(C)c1ccc(NC2(C(N)=O)CCN(Cc3ccccc3)CC2)cc1`, for which the IC50 is 16 µM. Moreover, the IC50 (measured here: THP-1 host cell toxicity) is 25 µM. The compound further gave an IC50 (measured here: amastigotes per macrophage) of 10 µM.
